Where “and” joins values, the source holds several entries; their conditions need not be identical. Identical values can stand only once. Only a part is listed here, and it is no random draw. Calls of active or inactive are those of the source. Rule as the data show it: active = inhibition mostly above about 28% (no sharp cut-off); inactive = mostly below about 43%.
Assay: A qHTS for Small Molecule Inhibitors of Shiga Toxin; also: 0% is about no effect
Conditions: Vero cells, Shiga toxin protein synthesis inhibition reporter; at 38.7 µM; active compounds read high

| Compound | inhibition |
| --- | --- |
| Clc1ccc(Cl)c(NC2=NCC(CBr)S2)c1 (stereo not given) | inactive: 2.02% |
| CN1CCCC(OC(=O)C(c2ccccc2)c2ccccc2)C1 (stereo not given) | inactive: 9.54% |
| NC(=O)c1cc([N+](=O)[O-])cc([N+](=O)[O-])c1N | inactive: 13% |
| Cc1ccc(N/C(=N/P(=O)(N2CCOCC2)N2CCOCC2)N2CCOCC2)cc1 | inactive: -10.2% |
| Nc1cccc2ccc([As](=O)(O)O)cc12 | inactive: -6.03% |
| Cc1ccc(NP(=O)(Oc2ccccc2F)Oc2ccccc2F)nc1 | inactive: 6.66% |
| CN(C(=O)Cc1ccc(Cl)c(Cl)c1)[C@H]1CCCC[C@@H]1N1CCCC1 | inactive: -5.2% |
| CCOP(=O)(Nc1ccccc1)OCC | inactive: -7.45% and inactive: 10.3% |
| Cc1cc(SC(NC(=O)c2ccc(F)cc2)C(Cl)(Cl)Cl)ncn1 (stereo not given) | inactive: 11.6% |
| O=C(O)c1ccccc1[As](=O)(O)O | inactive: 2.73% |
| CC(=O)Nc1ccc([As](=O)(O)O)cc1 | inactive: -5.29% |
| O=P(Nc1nc2ccc(Cl)cc2s1)(c1ccccc1)c1ccccc1 | inactive: 17.6% |
| O=[N+]([O-])c1cccc(NC2=NCC(CBr)S2)c1 (stereo not given) | inactive: 21.4% |
| O=C(O)CNc1ccc([As](=O)(O)O)cc1 | inactive: -6.98% |
| CC(C)(C)C(=O)NC(Sc1ccncn1)C(Cl)(Cl)Cl (stereo not given) | inactive: -8.15% |
| O=C(Nc1cc([As](=O)(O)O)ccc1O)c1ccccc1 | inactive: -3.99% |
| CN(C)C(=O)OCCc1n(C)cc[n+]1C | inactive: 7.22% |
| CC1CCN(C(=O)Oc2c(Cl)cc(Cl)c3cccnc23)CC1 | inactive: 25.9% |
| CC(=O)C1=CCCC2CCC1N2 (stereo not given) | inactive: 2.45% |
| Nc1ccc([As](=O)(O)c2ccc(N)cc2)cc1 | inactive: 1.27% |
| CCN(/C(=N/P(=O)(N1CCOCC1)N1CCOCC1)N1CCOCC1)c1ccc(OC)cc1 | inactive: -4.06% |
| O=[N+]([O-])c1cccc2n[nH]nc12 | inactive: -44.8% |
| CC(=O)N1C2C3N(C(C)=O)C1C1N(C(C)=O)C(C(N1C(C)=O)N3C(C)=O)N2C(C)=O | inactive: -3.66% |
| Cc1ccc(NP(=O)(Oc2ccccc2)Oc2ccccc2)nc1 | inactive: 5.38% |
| COc1ccc(C2=NCC(CBr)S2)cc1 (stereo not given) | inactive: 6.46% |
